Measured values from several laboratories, pooled; numbers as filed in NIAID ChemDB.

Common to all: enzyme or target tests

Percent inhibition refers to the dose given; in toxicity tests it is the harm to the cells.

structure | species | strain or isolate | changes | target | read by | measure | dose | result
CC(C)(CCCN=C(N)NC#N)CN(C[C@@H](O)[C@H](Cc1ccccc1)NC(=O)O[C@H]1CO[C@H]2OCC[C@H]21)S(=O)(=O)c1ccc2c(c1)OCO2 | HIV-1 |  |  | Protease | fluorescence | Ki |  | <0.001 µM
CCCC[C@@H](CN[C@@H](CCC(N)=O)C(=O)N[C@@H](CCCN=C(N)N)C(N)=O)NC(=O)[C@H](CCCC)NC(=O)C(NC(=O)C(NC(C)=O)[C@@H](C)O)[C@@H](C)CC | HIV |  | PR-G48V | Protease | HPLC | IC50 |  | >2.17 µM
CCCOC(=O)NCCCCCC(C)(C)CN(C[C@@H](O)[C@H](Cc1ccccc1)NC(=O)O[C@H]1CO[C@H]2OCC[C@H]21)S(=O)(=O)c1ccc2c(c1)OCO2 | HIV-1 |  |  | Protease | fluorescence | Ki |  | <0.001 µM
O=C1c2c(O)c(=O)c(-c3nccs3)cn2CCN1Cc1cc2ccccc2o1 | HIV-1 |  |  | Integrase | ELISA | IC50 |  | <0.01 µM
CCOC1C[C@@H](C(=O)NC(C)(C)C)N(C(=O)[C@@H](O)[C@H](Cc2ccccc2)NC(=O)[C@H](CS(C)(=O)=O)NC(=O)COc2cccc3ccccc23)C1 | HIV-1 |  |  | Protease |  | inhibition | 0.05 µM | 8.8%
Nc1nc2c(ncn2[C@H]2CC[C@@H](COP(=O)(O)OP(=O)(O)OP(=O)(O)O)O2)c(=O)[nH]1 | HIV |  | RT-T215Y | Reverse transcriptase |  | Ki |  | 0.04 µM
CC(C)c1cn(Cc2ccc(Cl)c(Cl)c2)c(=O)c2c(O)c(=O)ccn12 | HIV-1 |  |  | Integrase | ELISA | IC50 |  | <0.01 µM
CC(C)(C)NC(=O)[C@@H]1C[C@@H](O)CCN1C(=O)[C@@H](O)[C@H](Cc1ccccc1)NC(=O)[C@H](CC(N)=O)NC(=O)OCc1ccccc1 | HIV-1 |  |  | Protease |  | inhibition | 5 µM | 88.3%
CC(C)=CCN1Cc2cccc3[nH]c(=S)n(c23)C[C@@H]1C | HIV |  | RT-V60T | Reverse transcriptase | nucleotide incorporation | fold resistance |  | 8
COCCOC(=O)NCCCCC(C)(C)CN(C[C@@H](O)[C@H](Cc1ccccc1)NC(=O)O[C@H]1CO[C@H]2OCC[C@H]21)S(=O)(=O)c1ccc2c(c1)OCO2 | HIV-1 |  |  | Protease | fluorescence | Ki |  | <0.001 µM
CC(C)(C)NC(=O)[C@@H]1CCCN1C(=O)[C@@H](O)[C@H](CC1CCCCC1)NC(=O)[C@H](CC(N)=O)NC(=O)COc1cccc2ccccc12 | HIV-1 |  |  | Protease |  | IC50 |  | <0.05 µM
CC(C)(CCCCN)CN(C[C@@H](O)[C@H](Cc1ccccc1)NC(=O)O[C@H]1CO[C@H]2OCC[C@H]21)S(=O)(=O)c1ccc(N)cc1 | HIV-1 |  |  | Protease | fluorescence | Ki |  | <0.001 µM
COc1ccnc2[nH]cc(C(=O)C(=O)N3CCN(C(=O)c4ccccc4)C[C@H]3C)c12 | HIV-1 | NL4-3 | GP120-M434T | gp120 | ELISA | fold resistance |  | >97
CC(C)(C)NC(=O)[C@@H]1C[C@@H](OCc2ccccc2)CN1C(=O)[C@@H](O)[C@H](Cc1ccccc1)NC(=O)[C@H](CC(N)=O)NC(=O)OCc1ccccc1 | HIV-1 |  |  | Protease |  | inhibition | 5 µM | 65.4%
Cc1nsc(-c2cn3c(c(O)c2=O)C(=O)N(Cc2cccc(Cl)c2)CC3)n1 | HIV-1 |  |  | Integrase | ELISA | IC50 |  | 0.01–0.1 µM
CC(=O)CCC(C)(C)CN(C[C@@H](O)[C@H](Cc1ccccc1)NC(=O)O[C@H]1CO[C@H]2OCC[C@H]21)S(=O)(=O)c1cccc2c1OCO2 | HIV-1 |  |  | Protease | fluorescence | Ki |  | <0.001 µM
CC(C)(C)NC(=O)[C@@H]1CCCN1C(=O)[C@@H](O)[C@H](Cc1ccccc1)NC(=O)[C@H](CS(C)(=O)=O)NC(=O)COc1ccc2ccccc2c1 | HIV-1 |  |  | Protease |  | inhibition | 0.05 µM | 71.2%
CCc1cn2ccn(Cc3cccc(Cl)c3)c(=O)c2c(O)c1=O | HIV-1 |  |  | Integrase | ELISA | IC50 |  | 0.01–0.1 µM
COCC(=O)NCCCCCC(C)(C)CN(C[C@@H](O)[C@H](Cc1ccccc1)NC(=O)O[C@H]1CO[C@H]2OCC[C@H]21)S(=O)(=O)c1ccc2c(c1)OCO2 | HIV-1 |  |  | Protease | fluorescence | Ki |  | <0.001 µM
CC(C)(C)NC(=O)[C@H]1N(C(=O)[C@@H](O)[C@H](Cc2ccccc2)NC(=O)[C@H](CC(N)=O)NC(=O)COc2cccc3ccccc23)CSC1(C)C | HIV-1 |  |  | Protease |  | inhibition | 0.05 µM | 98.9%
O=c1c(-c2cnccn2)cn2ccn(Cc3cccc(Cl)c3)c(=O)c2c1O | HIV-1 |  |  | Integrase | ELISA | IC50 |  | <0.01 µM
NC(=O)C[C@H](NC(=O)OCc1ccccc1)C(=O)N[C@@H](Cc1ccccc1)[C@H](O)C(=O)N1CCC[C@H]1C(=O)NCC1CCCCC1 | HIV-1 |  |  | Protease |  | inhibition | 5 µM | 48.1%
COC(=O)NCC(=O)NCCCC(C)(C)CN(C[C@@H](O)[C@H](Cc1ccccc1)NC(=O)O[C@H]1CO[C@H]2OCC[C@H]21)S(=O)(=O)c1ccc2c(c1)OCO2 | HIV-1 |  |  | Protease | fluorescence | Ki |  | <0.001 µM
CCC(C)C(CO)NC(=O)[C@@H]1CSCN1C(=O)[C@@H](O)[C@H](Cc1ccccc1)NC(=O)[C@H](CS(C)(=O)=O)NC(=O)COc1cccc2ccccc12 | HIV-1 |  |  | Protease |  | inhibition | 0.05 µM | >90%
CC(C)OC(=O)NCCC(C)(C)CN(C[C@@H](O)[C@H](Cc1ccccc1)NC(=O)O[C@H]1CO[C@H]2OCC[C@H]21)S(=O)(=O)c1ccc(N)cc1 | HIV-1 |  |  | Protease | fluorescence | Ki |  | <0.001 µM
CC(C)c1cn(Cc2cccc(Cl)c2)c(=O)c2c(O)c(=O)c(Br)cn12 | HIV-1 |  |  | Integrase | ELISA | IC50 |  | 0.01–0.1 µM
Nc1nc2c(ncn2[C@H]2CO[C@@H](COP(=O)(O)OP(=O)(O)OP(=O)(O)O)O2)c(=O)[nH]1 | HIV |  | RT-D67N K70R T215Y K219Q | Reverse transcriptase | radiometric | Ki |  | 0.09 µM
CC(C)(CCCCCNC(=O)C1CCC1)CN(C[C@@H](O)[C@H](Cc1ccccc1)NC(=O)O[C@H]1CO[C@H]2OCC[C@H]21)S(=O)(=O)c1ccc2c(c1)OCO2 | HIV-1 |  |  | Protease | fluorescence | Ki |  | <0.001 µM
CC(C)C(=O)c1cc(=O)c(O)c2n1CCN(Cc1ccc(Cl)c(Cl)c1)C2=O | HIV-1 |  |  | Integrase | ELISA | IC50 |  | <0.01 µM
CC(C)NC(=O)NCCCCC(C)(C)CN(C[C@@H](O)[C@H](Cc1ccccc1)NC(=O)O[C@H]1CO[C@H]2OCC[C@H]21)S(=O)(=O)c1cccc2c1OCO2 | HIV-1 |  |  | Protease | fluorescence | Ki |  | <0.001 µM
CC(C)S(=O)(=O)Cc1cc(=O)c(O)c2n1CCN(Cc1ccc(Cl)c(Cl)c1)C2=O | HIV-1 |  |  | Integrase | ELISA | IC50 |  | 0.01–0.1 µM
CC(C)(CCCCNC(=O)Oc1ccc(F)cc1)CN(C[C@@H](O)[C@H](Cc1ccccc1)NC(=O)O[C@H]1CO[C@H]2OCC[C@H]21)S(=O)(=O)c1ccc2c(c1)OCO2 | HIV-1 |  |  | Protease | fluorescence | Ki |  | <0.001 µM
Nc1ccn([C@H]2CC[C@@H](COP(=O)(O)OP(=O)(O)OP(=O)(O)O)O2)c(=O)n1 | HIV |  |  | Reverse transcriptase |  | Ki |  | 5.1 µM

For reference, 3 entries again:

structure,species,strain or isolate,changes,target,read by,measure,dose,result
CC(C)C(=O)c1cc(=O)c(O)c2n1CCN(Cc1ccc(Cl)c(Cl)c1)C2=O,HIV-1,,,Integrase,ELISA,IC50,,<0.01 µM
CC(C)(C)NC(=O)[C@@H]1CCCN1C(=O)[C@@H](O)[C@H](CC1CCCCC1)NC(=O)[C@H](CC(N)=O)NC(=O)COc1cccc2ccccc12,HIV-1,,,Protease,,IC50,,<0.05 µM
CC(C)(CCCCNC(=O)Oc1ccc(F)cc1)CN(C[C@@H](O)[C@H](Cc1ccccc1)NC(=O)O[C@H]1CO[C@H]2OCC[C@H]21)S(=O)(=O)c1ccc2c(c1)OCO2,HIV-1,,,Protease,fluorescence,Ki,,<0.001 µM

Lines come from different laboratories, so protocols vary. ICn: concentration for n% inhibition. Fold resistance has wild type as its base. Two numbers with a dash give a range or band. Blank or dashed fields: not listed here.